# Data reported in patent US5159061A (Takeda Chemical Industries, Ltd., priority 1986, dated 1992).
# Assay: general procedure: solution-phase peptide synthesis; HONB/DCC (ONB active esters)
# Conditions: oxidative folding step
substance,measurement,value
"PEPTIDE1{[Aib].C.F.G.G.R.I.D.R.I.G.A.Q.S.G.L.G.C.N.S.F.R.Y}$PEPTIDE1,PEPTIDE1,2:R3-18:R3$$$V2.0",oxidative folding yield,18%

# Strings that start with PEPTIDE1 are HELM notation: dots part the residues, brackets hold end groups and non-standard residues.
